PubChem BioAssay AID624099 | ICCB-Longwood | 2012
This is a random part of about 21,000 reagents. Of all reagents, 497 (2.4%) were called active. 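Higher z means weaker E2 silencing; only reporter increases were scored, and knock-downs that hurt cell survival may mask genuine repressor factors.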 A number with no mark means an inactive call. The numbers tell different reagents against one gene apart.

Assay: 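Human genes that papillomavirus E2 requires to repress the HPV18 LCR promoter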 (primary screen)
Cells: human C33A cervical carcinoma cells (HPV-negative) stably expressing BPV1 E2 and an HPV18 LCR luciferase reporter
Reagents: siRNA pool against human genes, 40 nM
Duration: 72 h
Detection: 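HPV18 LCR reporter light per well, converted to plate-wise z-scores that exclude control wells, and averaged over triplicate plates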
Reading the numbers: mean z-score and z-score: higher = stronger reporter signal, weaker E2 silencing
Rule for the call: 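Hit if mean z-score reaches 2 and two or more of three replicate z-scores also reach 2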

AVEN gave mean z-score -0.77; z-score, replicate A = -0.9; z-score, replicate B = -0.61; z-score, replicate C = -0.8.
Knock-down of LAMB1 resulted in: mean z-score 0.15; z-score, replicate A = 0.28; z-score, replicate B = 0.23; z-score, replicate C = -0.05.
Depletion of KIF26A came out at: mean z-score 5.09 (active); z-score, replicate A = 5.4; z-score, replicate B = 4.79; z-score, replicate C = 5.09.
Silencing of MRTO4 gave: mean z-score -0.35; z-score, replicate A = -0.47; z-score, replicate B = -0.13; z-score, replicate C = -0.46.
THRAP3 scored mean z-score -0.24; z-score, replicate A = -0.15; z-score, replicate B = -0.34; z-score, replicate C = -0.23.
Against LCE2B the deposit lists mean z-score -0.07; z-score, replicate A = -0.14; z-score, replicate B = -0.15; z-score, replicate C = 0.09.
Silencing of MITD1 came out at: mean z-score -0.84; z-score, replicate A = -0.89; z-score, replicate B = -0.87; z-score, replicate C = -0.76.
DMBT1L1 gave mean z-score -0.44; z-score, replicate A = -0.54; z-score, replicate B = -0.4; z-score, replicate C = -0.37.
After knock-down of ENPP4 the results were mean z-score -0.19; z-score, replicate A = 0; z-score, replicate B = -0.37; z-score, replicate C = -0.2.
Against LOC388308 (retired record), the values are mean z-score 1.15; z-score, replicate A = 0.96; z-score, replicate B = 1.41; z-score, replicate C = 1.08.
For OR2T6, the values are mean z-score -1; z-score, replicate A = -1.1; z-score, replicate B = -0.92; z-score, replicate C = -0.98.
ERVV-1 scored mean z-score -2.36; z-score, replicate A = -2.71; z-score, replicate B = -2.16; z-score, replicate C = -2.21.
For KATNAL1, the entry reads mean z-score 0.29; z-score, replicate A = 0.02; z-score, replicate B = 0.53; z-score, replicate C = 0.33.
Knock-down of RPL7 resulted in: mean z-score -2.38; z-score, replicate A = -2.43; z-score, replicate B = -2.36; z-score, replicate C = -2.36.
With knock-down of ANKRD20A9P, the record shows mean z-score -0.36; z-score, replicate A = -0.44; z-score, replicate B = -0.15; z-score, replicate C = -0.49.
With knock-down of PCSK7, the screen gave mean z-score 0.65; z-score, replicate A = 0.63; z-score, replicate B = 0.75; z-score, replicate C = 0.57.
KATNBL1 scored mean z-score 0.12; z-score, replicate A = -0.06; z-score, replicate B = 0.57; z-score, replicate C = -0.15.
Silencing of AQP2 came out at: mean z-score 0.03; z-score, replicate A = 0.19; z-score, replicate B = -0.1; z-score, replicate C = 0.02.
With knock-down of CFAP299, the screen gave mean z-score 1.24; z-score, replicate A = 1.18; z-score, replicate B = 1.56; z-score, replicate C = 1.
For RABGEF1, the values are mean z-score -0.88; z-score, replicate A = -1.09; z-score, replicate B = -0.94; z-score, replicate C = -0.62.
LINC00667 #1 gave mean z-score -0.96; z-score, replicate A = -0.8; z-score, replicate B = -0.94; z-score, replicate C = -1.14.
Depletion of LINC00667 #2 gave: mean z-score -0.02; z-score, replicate A = 0.36; z-score, replicate B = -0.5; z-score, replicate C = 0.07.
